Measured values: PubChem BioAssay AID1259311 (ICCB-Longwood Screening Facility, Harvard Medical School, 2017)
This is a selection; strong and weak results do not stand in their true shares. Some structures show a salt or complex split into parts, the way the source records it. The source made the active and inactive calls. No stated cut-off is given here; in the data, active means inhibition above about 85%; inactive means the rest.

assay: growth inhibition of S. aureus RN4220, primary screen, OD600 (AID 1259311); details: OD600, 16 h, stronger effect = higher value;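 further: plate controls were untreated cells for no effect and reference antibiotic for full effect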

| Compound | inhibition |
| --- | --- |
| COc1ccc2c(c1O)-c1c(O)c(OC)cc3c1C(C2)[N+](C)(C)CC3.O=[N+]([O-])c1cc([N+](=O)[O-])c([O-])c([N+](=O)[O-])c1[O-] (stereo not given) | inactive: 3.15% |
| ClCCSc1nnc(-c2cccnc2)o1 | inactive: 4.42% |
| Cc1ccc2nc3c(c(C)c2c1)CC(C(Cl)Cl)S3 (stereo not given) | inactive: 6.99% |
| O=[N+]([O-])c1ccc2c(c1)C=Nc1ccccc1O2 | inactive: 8.43% |
| CC(C)(C)c1ccc(OP(C)(=O)Nc2ccc(SC(F)(F)F)cc2)cc1 (stereo not given) | inactive: -16.7% |
| Cc1ccc(OP(=O)(Nc2ccc([N+](=O)[O-])cn2)Oc2ccc(C)cc2)cc1 | inactive: 1.66% |
| Cc1cccc(C)c1OP(C)(N)=O (stereo not given) | inactive: 0.787% |
| C[As](=O)(O)c1cccc(C(=O)O)c1 | inactive: 3.67% |
| O=[As](O)(c1ccc(O)cc1)c1ccccc1O | inactive: 0.755% |
| COc1cc(C(=O)NCC2(N3CCOCC3)CCCCC2)ccc1OCC(C)C | inactive: 2.7% |
| O=[N+]([O-])c1ccc(-c2cc([N+](=O)[O-])c(O)c([N+](=O)[O-])c2)cc1 | inactive: 21.1% |
| CCCC(C)(O)C1CC23C=CC1(OC)C1Oc4c(O)ccc5c4[C@@]12CCN(C)[C@@H]3C5 (stereo not given in full) | inactive: 1.49% |
| O=[N+]([O-])c1cc([N+](=O)[O-])c(Nc2cccnc2)c([N+](=O)[O-])c1 | active: 98.5% |
| CCC(CO)(C(=O)OC1CN2CCC1CC2)c1ccccc1 (stereo not given) | inactive: -2.73% |
| COc1ccc2nc(NP(=O)(c3ccccc3)c3ccccc3)sc2c1 | inactive: 5.19% |
| COc1cc(I)ccc1[As](=O)(O)O | inactive: 1.53% |
| O=P1(N(CCCl)CCCl)Nc2ccccc2N1 | inactive: 3.92% |
| O=C(OC1CN2CCC1CC2)C12CC3CC(CC(C3)C1)C2 (stereo not given) | inactive: 0.161% |
| CCN(CC)CCCOC(=O)C(O)(c1ccccc1)c1ccccc1 | inactive: 3.28% |
| Cc1cc(=O)[nH]c(N[N+](=O)[O-])n1 | inactive: -0.927% |
| Cc1c2c(nc3ccccc13)SC(C(Cl)Cl)C2 (stereo not given) | inactive: 2.04% |
| CP(=O)(Nc1ccccn1)Oc1ccc(Cl)cc1 (stereo not given) | inactive: 3.17% |
| CCC(C)N(CC(C)C)C(=S)SC(NC(C)=O)C(Cl)(Cl)Cl (stereo not given) | inactive: -5.4% |
| CCOC(=O)c1ccc(NC(=O)C(C)(CCl)SC)cc1 (stereo not given) | inactive: 0.924% |
| CCOC(=O)c1ccc(NP(C)(=O)Oc2ccc(OC)cc2)cc1 (stereo not given) | inactive: 5.48% |

| Compound | inhibition |
| --- | --- |
| O=[N+]([O-])c1cc([N+](=O)[O-])c(O)c([N+](=O)[O-])c1.c1ccc(Oc2ccncc2)cc1 | inactive: 3.79% |
| O=C(OC1CN2CCC1CC2)c1cccc([N+](=O)[O-])c1 (stereo not given) | inactive: 4.67% |
| CCOP(C)(=S)SCC(=O)NC(C)C(=O)O (stereo not given) | inactive: -1.09% |
| CCc1ccc(OP(C)(=O)N2CCN(c3ccc([N+](=O)[O-])cc3)CC2)cc1 (stereo not given) | inactive: 2.51% |
| O=C(COc1ccccc1)OC1CN2CCC1CC2 (stereo not given) | inactive: 2.57% |
| CP(=O)(NC(=O)Nc1ccccc1)Oc1ccccc1 (stereo not given) | inactive: 1.21% |
| O=C(Nc1ccncc1[N+](=O)[O-])c1ccc([N+](=O)[O-])cc1[N+](=O)[O-] | inactive: 8.37% |
| Cc1cc(C)cc(OP(C)(=O)Nc2ccc(SC(F)(F)F)cc2)c1 (stereo not given) | inactive: 4.15% |
| CC1OP(=O)(Oc2ccccc2)C(O)C(O)C1N=[N+]=[N-] (stereo not given) | inactive: 4.14% |
| Cc1cccc(C)c1OP(C)(=O)Nc1ccc(SC(F)(F)F)cc1 (stereo not given) | inactive: -0.0333% |
| CP(=O)(Nc1ccc(SC(F)(F)F)cc1)Oc1ccc(Cl)cc1 (stereo not given) | inactive: -1.15% |
| COP1(=S)c2c(C)nn(CCC#N)c2N=C(c2ccc(F)cc2)N1C (stereo not given) | inactive: 1.08% |
| CP(=O)(Oc1ccccc1)OC(c1ccccc1)C(F)(F)F (stereo not given) | inactive: 6.96% |
| CP(=O)(Nc1ccccc1Br)Oc1ccccc1 (stereo not given) | inactive: -2.45% |
| O=[N+]([O-])c1ccc(Nc2ccc(Oc3ccc([N+](=O)[O-])cc3[N+](=O)[O-])cc2)c([N+](=O)[O-])c1 | inactive: 7.1% |
| O=P(Nc1ccccn1)(c1cccc2ccccc12)c1cccc2ccccc12 | inactive: 1.04% |
| Cc1cc(SC(NC=O)C(Cl)(Cl)Cl)ncn1 (stereo not given) | inactive: -6.2% |
| COc1ccccc1OP(C)(=O)Nc1ccccc1 (stereo not given) | inactive: 6.87% |
| CCOC(=O)Nc1cccc([As](=O)(O)O)c1 | inactive: 8.23% |
| CP(=S)(Nn1cnnc1)Oc1ccccc1 (stereo not given) | inactive: 4.3% |
| CCCCOc1ccc(C(=O)NCC2(N3CCCCC3)CCCCC2)cc1OC | inactive: -1.03% |
| COc1ccc(NC(=NP(=O)(N2CCOCC2)N2CCOCC2)N2CCOCC2)cc1 | inactive: 6.88% |
| Cc1cc(SC(NC(=O)c2ccccc2)C(Cl)(Cl)Cl)nc(C(C)C)n1 (stereo not given) | inactive: -2.6% |
| CC1CCNP(=O)(N(CCCl)CCCl)O1 (stereo not given) | inactive: 5.09% |
| CCOC(=O)Nc1ccc([As](=O)(O)O)c(O)c1 | inactive: 2.73% |
